Compound potency records, mixed from different reports. Data source: NIAID ChemDB in PubChem.

Shared fields: cytotoxicity tests; cells: H9; endpoint: CC50

Rows are shuffled and stem from different studies.

{"SMILES": "O=c1cc(-c2ccccc2)[nH]c2c(S)cccc12", "value": "35 µg/mL"}
{"SMILES": "Cc1c(C)c2ccc3c(c2[nH]c1=O)[C@@H](OC(=O)C12CCC(C)(C(=O)O1)C2(C)C)[C@@H](OC(=O)C12CCC(C)(C(=O)O1)C2(C)C)C(C)(C)O3", "value": "42 µM"}
{"SMILES": "COc1cc2c(c(OC)c1OC)-c1ccc(O)c(=O)cc1[C@@H](N)CC2", "value": "1.2 µM"}
{"SMILES": "CC(C)(O)C(O)COc1c2ccoc2cc2oc(=O)ccc12", "value": "21.1 µg/mL"}
{"SMILES": "Cc1cc(=O)[nH]c2c3c(ccc12)OC(C)(C)[C@H](OC(=O)C12CCC(C)(C(=O)O1)C2(C)C)[C@@H]3OC(=O)C12CCC(C)(C(=O)O1)C2(C)C", "value": "28 µM"}
{"SMILES": "CCC(c1cccc(NS(=O)(=O)c2ccc(C#N)cn2)c1)c1c(O)c2c(oc1=O)CCCCCCCC2", "value": ">30 µM"}
{"SMILES": "Cc1cn([C@H]2C[C@H](N=[N+]=[N-])[C@@H](CO)O2)c(=O)[nH]c1=O", "value": "500 µg/mL"}
{"SMILES": "C=C(c1ccc(OC)c(OC)c1)c1nccc2cc(OC)c(OC)cc12", "value": "1.85 µg/mL"}
{"SMILES": "Cc1cn([C@H]2C[C@H](F)[C@@H](CO)O2)c(=O)[nH]c1=O", "value": "1000 µM"}
{"SMILES": "COc1ccc(Cc2nccc3cc(OC)c(OC)cc23)cc1OC", "value": ">40 µg/mL"}
{"SMILES": "COC(C)(C)C(O)COc1c2ccoc2cc2oc(=O)ccc12", "value": ">100 µg/mL"}
{"SMILES": "O=c1cc(-c2ccccc2)sc2ccc(O)cc12", "value": "40 µg/mL"}
{"SMILES": "COC1CCC(OC2CC(C)(C3CCC(C4OC(C)(O)C(C)CC4C)O3)OC2C2(C)CC(C)C3(OC(CC4OC(O)(C(C)C(=O)O)C(C)C(OC)C4OC)CC(OC)C3C)O2)OC1C", "value": "49.1 µg/mL"}
{"SMILES": "CC1(C)Oc2ccc3ccc(=O)oc3c2[C@@H](OC(=O)C23CCC(C)(C(=O)O2)C3(C)C)[C@H]1OC(=O)C12CCC(C)(C(=O)O1)C2(C)C", "value": "35 µM"}
{"SMILES": "O=c1cc(-c2ccccc2)sc2cc(O)ccc12", "value": "40 µg/mL"}
{"SMILES": "COc1cc([C@@H]2c3cc4c(cc3[C@@H](Nc3nc5ccccc5[nH]3)[C@H]3COC(=O)[C@H]23)OCO4)cc(OC)c1O", "value": "0.206 µg/mL"}
{"SMILES": "CCC(c1cccc(NS(=O)(=O)c2ccc(C#N)cn2)c1)c1c(O)c2c(oc1=O)CCC2", "value": ">30 µM"}
{"SMILES": "C=C(c1ccc(OC)c(OC)c1)c1c2cc(OC)c(OC)cc2cc[n+]1C", "value": "17.4 µg/mL"}
{"SMILES": "COc1cc([C@@H]2c3cc4c(cc3[C@@H](Nc3ccc(-c5nc6ccccc6[nH]5)cc3)[C@H]3COC(=O)[C@H]23)OCO4)cc(OC)c1O", "value": "0.016 µg/mL"}
{"SMILES": "COc1cc(Cc2c3cc(OC)c(OC)cc3cc(C)[n+]2C)c(C(C)=O)cc1OC", "value": "20.6 µg/mL"}
{"SMILES": "CC(C)(C)OC(=O)N[C@@H](Cc1ccccc1)[C@@H](O)C[C@@H](Cc1ccc(OCc2nn[nH]n2)cc1)C(=O)N[C@H]1c2ccccc2C[C@H]1O", "value": ">200 µM"}
{"SMILES": "CCCCCC1NCCc2cc(O)c(O)cc21", "value": "21.6 µg/mL"}
{"SMILES": "CCC(C1=C(O)C2CCCCC2OC1=O)c1cccc(NS(=O)(=O)c2ccc(C#N)cc2)c1", "value": ">30 µM"}
{"SMILES": "Nc1ncnc2c1ncn2CCOCP(=O)(O)O", "value": "40 µM"}
{"SMILES": "Cc1cc(=O)c2ccc3c(c2o1)[C@@H](OC(=O)C12CCC(C)(C(=O)O1)C2(C)C)[C@@H](OC(=O)CC(C)C)C(C)(C)O3", "value": ">32.2 µM"}
{"SMILES": "Nc1ccn([C@@H]2O[C@H](CO)C[C@@H]2F)c(=O)n1", "value": ">100 µM"}
{"SMILES": "Cc1cn([C@H]2C[C@H](N=[N+]=[N-])[C@@H](CO)O2)c(=O)[nH]c1=O", "value": "1875 µM"}
{"SMILES": "Cc1cn([C@H]2C[C@H](N=[N+]=[N-])[C@@H](CO)O2)c(=O)[nH]c1=O", "value": "500 µg/mL"}
{"SMILES": "COc1cc([C@@H]2c3cc4c(cc3[C@@H](O)[C@H]3COC(=O)[C@H]23)OCO4)cc(OC)c1O", "value": "0.171 µg/mL"}
{"SMILES": "CC(C)(Cl)C(O)COc1c2ccoc2cc2oc(=O)ccc12", "value": "26.3 µg/mL"}
{"SMILES": "Cc1cn([C@H]2C[C@H](N=[N+]=[N-])[C@@H](CO)O2)c(=O)[nH]c1=O", "value": "90 µM"}
{"SMILES": "C[C@@H]1C[C@@H]([C@H](O)CC2CC(=O)NC(=O)C2)C(=O)[C@@H](C)C1", "value": "1 µg/mL"}
{"SMILES": "COC(=O)[C@H]1CC[C@H]2[C@@H]3CC=C4CC(O)CC[C@]4(C)[C@H]3CC[C@]12C", "value": "39.4 µM"}
{"SMILES": "COc1cc(/C=C/C(=O)N[C@H]2CCc3cc(OC)c(OC)c(OC)c3-c3ccc(OC)c(=O)cc32)cc(OC)c1OC", "value": "0.0055 µM"}
{"SMILES": "CC(C)(O)[C@H](O)COc1c2occc2cc2ccc(=O)oc12", "value": ">100 µg/mL"}
{"SMILES": "CC[C@@H]1O[C@@H]([C@]2(C)C[C@@H](C)[C@](O)([C@]3(C)CC[C@@H]([C@@H](O)[C@]4(O)O[C@H](C[C@@]5(O)O[C@@H]([C@@H](C)[C@H](O)C[C@@H]6O[C@H]([C@@H](C)C(=O)O)[C@@H](C)C[C@H]6C)CC[C@@H]5C)[C@@H](C)C[C@H]4C)O3)O2)CC[C@@]1(C)O", "value": "13.5 µg/mL"}
{"SMILES": "Cc1cn([C@H]2C[C@H](N=[N+]=[N-])[C@@H](CO)O2)c(=O)[nH]c1=O", "value": "1872 µM"}
{"SMILES": "COC1CCC(OC2CC(C3OC(O)(CO)C(C)CC3C)OC2C2(C)CCC(C3(C)CCC4(CC(O)C(C)C(C(C)C5OC(O)(CC(=O)O)C(C)C(OC6CCC(OC)C(C)O6)C5OC)O4)O3)O2)OC1C", "value": ">100 µg/mL"}
{"SMILES": "O=c1cc(-c2ccccc2)sc2cc(O)c(O)cc12", "value": "1.8 µg/mL"}
{"SMILES": "O=C(/C=C/c1ccc(O)c2c1[C@H](C(=O)O)[C@@H](c1ccc(O)c(O)c1)O2)O[C@H](Cc1ccc(O)c(O)c1)C(=O)O", "value": ">300 µM"}
{"SMILES": "Cc1cn([C@H]2C[C@H](N=[N+]=[N-])[C@@H](CO)O2)c(=O)[nH]c1=O", "value": ">20 µM"}
{"SMILES": "CCOCc1cc(=O)c2ccc3c(c2o1)[C@@H](OC(=O)C12CCC(C)(C(=O)O1)C2(C)C)[C@@H](OC(=O)C12CCC(C)(C(=O)O1)C2(C)C)C(C)(C)O3", "value": "15.1 µM"}
{"SMILES": "COc1ccc2ccc(=O)oc2c1CC=C(C)C", "value": "11.7 µg/mL"}
{"SMILES": "CCC(c1cccc(NS(=O)(=O)c2ccc(C#N)cn2)c1)c1c(O)c2c(oc1=O)CCCC2", "value": ">30 µM"}
{"SMILES": "COc1ccc(N[C@@H]2c3cc4c(cc3[C@@H](c3cc(OC)c(O)c(OC)c3)[C@H]3C(=O)OC[C@@H]32)OCO4)c([N+](=O)[O-])c1", "value": "1.69 µg/mL"}
{"SMILES": "COc1cccc2sc(-c3ccccc3)cc(=O)c12", "value": "7 µg/mL"}
{"SMILES": "CC(C)=CCC[C@@]1(C)[C@@H]2CC[C@]3(C)Oc4cc(C)c(C(=O)O)c(O)c4[C@H]1[C@H]23", "value": "34 µg/mL"}
{"SMILES": "CC(C)(C)NC(=O)[C@H]1CC[C@H]2[C@@H]3CCC4=CC(=O)CC[C@]4(C)[C@H]3CC[C@]12C", "value": "240 µM"}
{"SMILES": "COc1cc(-c2cc(=O)c3c(O)c(OC)c(OC)cc3o2)c(O)cc1O", "value": "<100 µg/mL"}
{"SMILES": "CCC(C1=C(O)C2CCCCCC2OC1=O)c1cccc(NS(=O)(=O)c2ccc(C#N)cn2)c1", "value": ">30 µM"}
{"SMILES": "Cc1cc(=O)[nH]c2cc(N)ccc12", "value": "104 µM"}
{"SMILES": "CC(C)(C)OC(=O)N[C@@H](Cc1ccccc1)[C@@H](O)C[C@@H](Cc1ccc(OCc2nnnn2Cc2ccccc2)cc1)C(=O)N[C@H]1c2ccccc2C[C@H]1O", "value": ">200 µM"}
{"SMILES": "COc1cc2c(c(OC)c1OC)-c1ccc(=O)c(OC)cc1[C@@H](NC(=O)C(F)(F)F)CC2", "value": "0.66 µM"}
{"SMILES": "CC1(C)Oc2ccc3c(=O)cc(-c4ccccc4)oc3c2[C@@H](OC(=O)C23CCC(C)(C(=O)O2)C3(C)C)[C@H]1OC(=O)C12CCC(C)(C(=O)O1)C2(C)C", "value": ">35.82 µM"}
{"SMILES": "Nc1ncnc2c1ncn2[C@H]1C=C(F)[C@@H](CO)O1", "value": "50 µg/mL"}
{"SMILES": "Cc1cc(=O)oc2c3c(ccc12)OC(C)(C)[C@H](OC(=O)C12CCC(C)(C(=O)O1)C2(C)C)[C@@H]3OC(=O)C12CCC(C)(C(=O)O1)C2(C)C", "value": "39.3 µM"}
{"SMILES": "CC[C@@H](C(=O)[C@@H](C)[C@@H](O)[C@H](C)[C@@H]1O[C@@H]([C@@H](CC)C(=O)O)CC[C@@H]1C)[C@H]1O[C@@]2(C=C[C@@H](O)[C@@]3(CC[C@@](C)([C@H]4CC[C@](O)(CC)[C@H](C)O4)O3)O2)[C@H](C)C[C@@H]1C", "value": "6.98 µg/mL"}
{"SMILES": "CC(=O)N[C@H]1CCc2cc(O)c(O)c(O)c2-c2ccc(O)c(=O)cc21", "value": "1.2 µM"}
{"SMILES": "Nc1ccn([C@H]2C=C(F)[C@@H](CO)O2)c(=O)n1", "value": "100 µg/mL"}
{"SMILES": "CCOc1ccc(Cc2c3cc(OCC)c(OCC)cc3cc(C)[n+]2C)cc1OCC", "value": "13 µg/mL"}
{"SMILES": "CCNC(=O)[C@@H](NC(=O)Cc1ccccc1)[C@@H]1N[C@@H](C(=O)NCCNC(=O)[C@@H]2N[C@@H]([C@H](NC(=O)Cc3ccccc3)C(=O)NCC)SC2(C)C)C(C)(C)S1", "value": ">128 µM"}
{"SMILES": "COc1cc2c(cc1OC)[C@@H](Nc1ccc(C#N)cc1)[C@H]1COC(=O)[C@@H]1[C@@H]2c1cc(OC)c(O)c(OC)c1", "value": "0.141 µg/mL"}
{"SMILES": "COc1cc2c(c(OC)c1OC)-c1ccc(=O)c(OC)cc1[C@@H](N)CC2", "value": "2.8 µM"}
{"SMILES": "Nc1ccn([C@@H]2O[C@H](CO)C=C2F)c(=O)n1", "value": "6 µg/mL"}
{"SMILES": "CC(C)OP(=O)(COc1ccc(C[C@H](C[C@H](O)[C@H](Cc2ccccc2)NC(=O)OC(C)(C)C)C(=O)N[C@H]2c3ccccc3C[C@H]2O)cc1)OC(C)C", "value": "130 µM"}

A second listing of 5 rows from above:

SMILES	value
Cc1cn([C@H]2C[C@H](N=[N+]=[N-])[C@@H](CO)O2)c(=O)[nH]c1=O	1875 µM
Nc1ncnc2c1ncn2CCOCP(=O)(O)O	40 µM
CC(C)OP(=O)(COc1ccc(C[C@H](C[C@H](O)[C@H](Cc2ccccc2)NC(=O)OC(C)(C)C)C(=O)N[C@H]2c3ccccc3C[C@H]2O)cc1)OC(C)C	130 µM
Cc1cn([C@H]2C[C@H](N=[N+]=[N-])[C@@H](CO)O2)c(=O)[nH]c1=O	500 µg/mL
Cc1cc(=O)oc2c3c(ccc12)OC(C)(C)[C@H](OC(=O)C12CCC(C)(C(=O)O1)C2(C)C)[C@@H]3OC(=O)C12CCC(C)(C(=O)O1)C2(C)C	39.3 µM

CCn: concentration that lowers growth or viability of the cells by n%.